Human monoclonal antibodies against the spike receptor-binding domain (heavy:light variable regions). IC50 against pseudoviruses bearing the spike of naturally observed variants; lower = stronger; >10 µg/ml means not reached at the top dose. No active / inactive call. The stated detection limit is 0.0005 µg/ml; values near or below 0.001 µg/ml lie at the floor of the assay.
B1: BD56-1591 (protein)
chain 1: QEQLMQSGAEVKKPGSSVKVSCKASGGTFSSYSFSWVRQAPGQGLEWMGGIIPLLDTATYAQKFQGRVTITADELTSTAYMDLSSLRSDDTAVYFCARTPPYASGNFYPNYFDSWGQGTLVTVSS
chain 2: DIVMTQSPDSLALSLGERATISCKSSQSVLSSANNKNYLAWYQQKRGQPPKLLIYWASTRESGVPHRFSGSGSGTDFTLTIGSLQAADVAVYYCQQYYSSPYTFGQGTKLEIK
B2: BD56-1595 (protein)
chain 1: EVQLVQSGAEVKKAGESLKISCKGSGYSFISNWIAWVRQKPGKGLEWMGIIYPGDSDTRYSPSFQGQVTLSADKSISTAYLQWNSLKASDTAMYYCARLYDYVGFDPWGRGTLVTVSS
chain 2: SSELTQDPAVSVALGQTIRITCQGDSLRSYYASWYQQRPRQAPVLVIYDKDKRPSGIPDRFSGSSSGNTASLTITGAQAEDEADYYCNSRDNSDYHFVFGTGTKVTVL
B3: BD56-1601 (protein)
chain 1: QVQLVQSGAEVKKPGASVKVSCKASGYTFINYGISWVRQAPGQGLEWMGWISAYNGHTNYAQKFQGRVTMTTGTSPSTAYMELRSLRVDDTAVYYCARDSGQSDYYNEGSGTFDYWGQGTRVTVSS
chain 2: SYELTQPSSVSVSPGQTARISCSGDVLAKRYARWFRQQPGQAPVLVIYKDSQRPSGIPERFSGSSSGTTVTLTISGAQVEDEADYFCYCEADNNERVFGGGTKLTVL
B4: BD56-1607 (protein)
chain 1: QLQLQESGPGLVKPSETLSLTCTVSGGSISSSSYYWGWIRQPPGKGLEWIGSVFYSGITYYSPSLKSRVTISADTSKNQFSLRLSSVTAADTAVYYCARDVKSFAVPAARSFDYWGQGTLVTVSS
chain 2: QSALTQPASVSGSPGQSITISCTGTSSDVGTYDLVSWYQQHPGKVPKLMIYEVNKRPSGVSHRFSGSKSGNTASLTISGLQAEDEADYYCFSYAGIRIFGGGTKLTVL
B5: BD56-1608 (protein)
chain 1: EVQLQESGPGLVKPSQTLSLTCTVSGGSISGGGYYWSWLRQHPGKGLEWIGYIHYSGTTYYNPSLKSRVSISVDTSKNQFSLRLTSMTAADTAVYYCARVGDDDYFDSWGQGTLVIVSS
chain 2: EIVLTQSPATLSLSPGERATLSCRASQSISTYLAWYQQTRGQAPRLLIYDASYRATGIPVRFSGSGSGTDFTLTISSLEPEDFAVYYCQQRYNWPPITFGQGTRLEIK
B6: COV2-2479 (protein)
chain 1: QVQLVQSGAEVKKPGSSVKVSCKTSGDTSSSYTVGWVRQAPGQGLEWMGRIIPILGIAYSAQKFQGRLTITADKSTSTSYMELSSLRSEDTAVYYCARGVVAATPGWFDPWGQGTLVTVSS
chain 2: EIVMTQSPATLSVSPGERVTLSCRASQSVSSNLAWYQQKPGQAPRLLIYGASTRATGIPARFSGGGSGTEFTLTISSLQSEDFAVYYCQQYNNFLTFGGGTKVEIK
B7: BD56-1612 (protein)
chain 1: QVTLRESGPALVKPTQTLTLTCTFSAFSLSTNGMCVTWIRQPPGKALEWLARIDWDDDKFYSTSLKTRLTISKDTSKNQVVLTMTNMDPVDTATYYCARGRLGGFDSYLDYWGQGTLVTVSS
chain 2: QSVLTQPPSASGTPGQRVTVSCSGSSSNIGSNTADWYQQLPGTAPKLLIYTNDQRPSGVPDRFSGSKSGTSASLAISGLQSEDEADYFCAAWDDSLDVYVFGTGTKVTVL
B8: BD56-1615 (protein)
chain 1: QLQLQASGPGLVKPSETLSLTCTVSGGSISSTTHFWGWIRQPPGKGLEWIGSIFYSGRTHYTPSLKSRVAMSVDTSKNQVSLRLRSVTAADTAVYYCARLVDVGVAGTSGYYFDYWGQGTLVTVSS
chain 2: SYVLTQPPSVSVAPGKTARITCEENNIGSKNVHWYQQKPGQAPVLVVYDDSDRPSGIPERFSGSNAGNTATLTISRVEAGDEADYYCQVWDSSSDWVFGGGTKLTVL
B9: BD56-1618 (protein)
chain 1: EVQLVQSGPEVKKPGSSVRVSCKASGGTFGSNTITWVRQAPGQGLEWMGRVIPILDIPTYAQEFQGRITVTADTSTSTAYMELSGLTSEDTAVYYCARSFGGTSGRPYFYMDVWGTGTAVTVSS
chain 2: DTQMTQSPSTLSASLGDRVSITCRASHDISNWLAWYQQKPGKAPKLLIYLASTLESGVPSRFSGSGSGTEFTVTISSLQPDDFATYYCQQFHSYPYSFGQGTKLEIK
B10: BD56-1625 (protein)
chain 1: EVQLVESGGGLVQPGRSLRLSCAASGFTFGDHAMHWVRQAPGKGLEWVSGISWNSGGIDYADSVKGRFTISRDNSKSSLYLQMNSLRAEDTAFYYCARDSFGEQQLLYGLDVWGQGTTVTVSS
chain 2: DIQMTQSPSSLSASVGDRVTITCRASQTISTYLNWYQQKPGKAPKLLIYAASNLQSGVPSRFSGSGSGTDFTLTISSLQPEDFATYYCQQSYSTPATFGGGTKVEIK
B11: BD56-1629 (protein)
chain 1: EVQLVQSGAEVKKPGESLKISCQVSGYYFTSYWVGWVRQMPGKGLELMGIIFPGDSDTRYSPSFQGQVTISADKSINTAYLQWSSLKASDTAMYYCAITDSGSYYPFDYWGQGTLVTVSS
chain 2: DIQMTQSPSSLSASIGDRVTITCRASQSISSYLNWYQQKPGKAPKLLIYAASSLPSGVPSRFSGSGSGTDFTLTISSLQPGDYATYYCQQSYSMSWTFGQGTKVEIK
B12: COV2-2955 (protein)
chain 1: QVQLVESGGGVVQPGRSLRLSCAASGFTFVTSGIHWVRQAPGKGLEWVAVISYDGSNKYYADSVKGRFTISRDNSKNTLYLQMNSLRAEDTAVYYCAKGGPNKEVLYFGELLDYGMDVWGQGTTVTVSS
chain 2: DIVMTQTPLSLSVTPGQPASFSCKSSQSLLHSDGKTYLYWYLQKPGQSPQLLIYAVSNRFSGVPDRFSGSGSGTDFTLKISRVEAEDVGVYYCMQSIQLPYTFGQGTKLEIK

Each binder was assayed against SARS-CoV-2 Omicron BA.1 spike pseudovirus (assay: pseudovirus neutralization IC50; higher = weaker neutralization).
Description: (§1)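 Single-round VSV luciferase pseudovirus mixed with antibody dilutions for 1 h and put on Huh-7 cells for about a day; IC50 from the dose curve.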

Compared with B1, B2 is lower in “pseudovirus neutralization IC50” value: greater than 10 µg/mL for the first, 1.07 µg/mL for the second.

B3 and B4 cannot be ordered by “pseudovirus neutralization IC50” value: greater than 10 µg/mL for the first, greater than 10 µg/mL for the second.

B5 and B6 cannot be ordered by “pseudovirus neutralization IC50” value: greater than 10 µg/mL for the first, greater than 10 µg/mL for the second.

Compared with B7, B8 is 3.8-fold higher in “pseudovirus neutralization IC50” value: 0.0941 µg/mL for the first, 0.353 µg/mL for the second.

Going from B9 to B10, the “pseudovirus neutralization IC50” value rises from 0.0064 µg/mL to greater than 10 µg/mL.

B11 and B12 cannot be ordered by “pseudovirus neutralization IC50” value: greater than 10 µg/mL for the first, greater than 10 µg/mL for the second.

Each binder was assayed against SARS-CoV-2 Omicron BA.2 spike pseudovirus in the same assay as above.
Description: as §1

Compared with B1, B2 is lower in “pseudovirus neutralization IC50” value: greater than 10 µg/mL for the first, 1.11 µg/mL for the second.

B3 and B4 cannot be ordered by “pseudovirus neutralization IC50” value: greater than 10 µg/mL for the first, greater than 10 µg/mL for the second.

B5 and B6 cannot be ordered by “pseudovirus neutralization IC50” value: greater than 10 µg/mL for the first, greater than 10 µg/mL for the second.

Compared with B7, B8 is 440-fold higher in “pseudovirus neutralization IC50” value: 0.00136 µg/mL for the first, 0.598 µg/mL for the second.

First: B9
Second: B10
The “pseudovirus neutralization IC50” value of the first is lower: 0.00185 µg/mL for the first, greater than 10 µg/mL for the second.

B11 and B12 cannot be ordered by “pseudovirus neutralization IC50” value: greater than 10 µg/mL for the first, greater than 10 µg/mL for the second.

These binders were tested against SARS-CoV-2 Omicron BA.2.75 spike pseudovirus in the same assay as above.
Description: as §1

First: B1
Second: B2
The “pseudovirus neutralization IC50” value of the first is higher: greater than 10 µg/mL for the first, 0.5 µg/mL for the second.

B3 and B4 cannot be ordered by “pseudovirus neutralization IC50” value: greater than 10 µg/mL for the first, greater than 10 µg/mL for the second.

B5 and B6 cannot be ordered by “pseudovirus neutralization IC50” value: greater than 10 µg/mL for the first, greater than 10 µg/mL for the second.

Going from B7 to B8, the “pseudovirus neutralization IC50” value rises from 0.14 µg/mL to 0.746 µg/mL (5.3-fold).

First: B9
Second: B10
The “pseudovirus neutralization IC50” value of the first is lower: 0.00217 µg/mL for the first, greater than 10 µg/mL for the second.

B11 and B12 cannot be ordered by “pseudovirus neutralization IC50” value: greater than 10 µg/mL for the first, greater than 10 µg/mL for the second.

Each binder was assayed against SARS-CoV-2 Omicron BA.5 spike pseudovirus in the same assay as above.
Description: as §1

Going from B1 to B2, the “pseudovirus neutralization IC50” value falls from greater than 10 µg/mL to 0.918 µg/mL.

B3 and B4 cannot be ordered by “pseudovirus neutralization IC50” value: greater than 10 µg/mL for the first, greater than 10 µg/mL for the second.

B5 and B6 cannot be ordered by “pseudovirus neutralization IC50” value: greater than 10 µg/mL for the first, greater than 10 µg/mL for the second.

First: B7
Second: B8
The “pseudovirus neutralization IC50” value of the first is 2200-fold lower: 0.000435 µg/mL for the first, 0.962 µg/mL for the second.

B9 and B10 cannot be ordered by “pseudovirus neutralization IC50” value: greater than 10 µg/mL for the first, greater than 10 µg/mL for the second.

B11 and B12 cannot be ordered by “pseudovirus neutralization IC50” value: greater than 10 µg/mL for the first, greater than 10 µg/mL for the second.

Each binder was assayed against SARS-CoV-2 Omicron BQ.1.1 spike pseudovirus in the same assay as above.
Description: as §1

Compared with B1, B2 is lower in “pseudovirus neutralization IC50” value: greater than 10 µg/mL for the first, 0.978 µg/mL for the second.

B3 and B4 cannot be ordered by “pseudovirus neutralization IC50” value: greater than 10 µg/mL for the first, greater than 10 µg/mL for the second.

B5 and B6 cannot be ordered by “pseudovirus neutralization IC50” value: greater than 10 µg/mL for the first, greater than 10 µg/mL for the second.

Going from B7 to B8, the “pseudovirus neutralization IC50” value falls from greater than 10 µg/mL to 4.71 µg/mL.

B9 and B10 cannot be ordered by “pseudovirus neutralization IC50” value: greater than 10 µg/mL for the first, greater than 10 µg/mL for the second.

B11 and B12 cannot be ordered by “pseudovirus neutralization IC50” value: greater than 10 µg/mL for the first, greater than 10 µg/mL for the second.

The binders below were run against SARS-CoV-2 Omicron XBB spike pseudovirus in the same assay as above.
Description: as §1

Compared with B1, B2 is lower in “pseudovirus neutralization IC50” value: greater than 10 µg/mL for the first, 0.8 µg/mL for the second.

B3 and B4 cannot be ordered by “pseudovirus neutralization IC50” value: greater than 10 µg/mL for the first, greater than 10 µg/mL for the second.

B5 and B6 cannot be ordered by “pseudovirus neutralization IC50” value: greater than 10 µg/mL for the first, greater than 10 µg/mL for the second.

First: B7
Second: B8
The “pseudovirus neutralization IC50” value of the first is 4-fold lower: 1.39 µg/mL for the first, 5.59 µg/mL for the second.

B9 and B10 cannot be ordered by “pseudovirus neutralization IC50” value: greater than 10 µg/mL for the first, greater than 10 µg/mL for the second.

B11 and B12 cannot be ordered by “pseudovirus neutralization IC50” value: greater than 10 µg/mL for the first, greater than 10 µg/mL for the second.

Each binder was assayed against SARS-CoV-2 early D614G spike pseudovirus in the same assay as above.
Description: as §1

B1 and B2 are within 1.5-fold of each other in “pseudovirus neutralization IC50” value: 1.15 µg/mL for the first, 1.6 µg/mL for the second.

Going from B3 to B4, the “pseudovirus neutralization IC50” value rises from 2.04 µg/mL to greater than 10 µg/mL.

First: B5
Second: B6
The “pseudovirus neutralization IC50” value of the first is higher: greater than 10 µg/mL for the first, 0.0031 µg/mL for the second.

Going from B7 to B8, the “pseudovirus neutralization IC50” value rises from 0.0443 µg/mL to greater than 10 µg/mL.

Going from B9 to B10, the “pseudovirus neutralization IC50” value rises from 0.00288 µg/mL to greater than 10 µg/mL.

Going from B11 to B12, the “pseudovirus neutralization IC50” value falls from greater than 10 µg/mL to 0.0249 µg/mL.
